Anti-infective test results gathered from many reports (values: NIAID ChemDB through PubChem).

Shared fields: enzyme or target tests

a–b is a range or a potency band. Conditions beyond the fields shown may differ between rows. Percent inhibition refers to the dose given; in toxicity tests it is the harm to the cells. Fold resistance: result on the changed form divided by that on wild type. ICn: concentration for n% inhibition.

COc1ccnc2[nH]cc(C(=O)C(=O)N3CCN(C(=O)c4ccccc4)C[C@H]3C)c12 ; target: gp120 ; changes: GP120-R350K M475I ; strain or isolate: NL4-3 ; measure: fold resistance ; organism: HIV-1 ; method: ELISA ; result: 13
CCN1c2ncc(CCOc3ccc(C(=O)O)c4ccccc34)cc2C(=O)N(C)c2ccc(C)nc21 ; target: Reverse transcriptase ; changes: RT-V106A ; measure: fold resistance ; organism: HIV-1 ; method: nucleotide incorporation / radiometric ; result: >10
CC(C)[C@H](NC(=O)[C@@H]1CCCN1C(=O)[C@@H](O)[C@H](Cc1ccccc1)NC(=O)OC(C)(C)C)C(=O)OC1CCCCC1 ; target: Protease ; dose: 1000 µM ; measure: inhibition ; organism: HIV-1 ; result: 36.1%
CCCC[C@@H](CN[C@@H](CCC(N)=O)C(=O)N[C@@H](CCCN=C(N)N)C(N)=O)NC(=O)[C@H](CCCC)NC(=O)C(NC(=O)C(NC(C)=O)[C@@H](C)O)[C@@H](C)CC ; target: Protease ; changes: PR-M46L ; measure: IC50 ; organism: HIV ; method: HPLC ; result: >2.17 µM
CC1(C)c2nc(C(=O)NCc3ccc(F)cc3)c(O)c(=O)n2CCN1CC(=O)N1CCCC1 ; target: Integrase ; measure: IC50 ; organism: HIV-1 ; method: ELISA ; result: <10 µM
O=C(/C=C/c1cccn1Cc1ccc(F)cc1)CC(=O)C(=O)O ; target: RNase H ; changes: N474A ; dose: 100 µM ; measure: inhibition ; organism: HIV-1 ; method: substrate cleavage / fluorescence ; result: 45%
CCN1c2ncc(CCOc3ccc(C(=O)O)c4c3CCCC4)cc2C(=O)N(C)c2ccc(Cl)nc21 ; target: Reverse transcriptase ; changes: RT-K103N Y181C ; measure: fold resistance ; organism: HIV-1 ; method: nucleotide incorporation / radiometric ; result: 1–10
CN1CCn2c(nc(C(=O)NCc3ccc(F)cc3)c(O)c2=O)C1(C)C ; target: Integrase ; measure: IC50 ; organism: HIV-1 ; method: ELISA ; result: <10 µM
O=C1c2c(O)c(=O)c(-c3cnccn3)cn2CCN1Cc1cccc(Cl)c1 ; target: Integrase ; measure: IC50 ; organism: HIV-1 ; method: ELISA ; result: 0.01–0.1 µM
CC(C)(C)NC(=O)[C@H]1N(C(=O)[C@@H](O)[C@H](Cc2ccccc2)NC(=O)[C@H](CC(N)=O)NC(=O)OCc2ccccc2)CCC1(C)C ; target: Protease ; dose: 0.05 µM ; measure: inhibition ; organism: HIV-1 ; result: 73.2%
CCN1c2ncc(CCOc3ccc4cc(C(=O)NC(C)(C)C(=O)O)ccc4c3)cc2C(=O)N(C)c2cccnc21 ; target: Reverse transcriptase ; changes: RT-K103N Y181C ; measure: fold resistance ; organism: HIV-1 ; method: nucleotide incorporation / radiometric ; result: 1–10
CN1CCn2c(nc(C(=O)NCc3cccc(Cl)c3)c(O)c2=O)C(N(C)C(=O)C(=O)N(C)C)C1 ; target: Integrase ; measure: IC50 ; organism: HIV-1 ; method: ELISA ; result: <10 µM
CC[C@H](C)[C@H](NC(=O)[C@@H]1CCCN1C(=O)[C@@H](O)[C@H](Cc1ccccc1)NC(=O)[C@H](CC(N)=O)NC(=O)[C@H](Cc1ccccc1)NC(=O)[C@@H](N)CO)C(=O)N[C@H](C(N)=O)C(C)C ; target: Protease ; dose: 5 µM ; measure: inhibition ; organism: HIV-1 ; result: 97.8%
Cc1cc(CNC(=O)c2nc3n(c(=O)c2O)CCN(C)CC3N(C)C(=O)C(=O)N(C)C)ccc1F ; target: Integrase ; measure: IC50 ; organism: HIV-1 ; method: ELISA ; result: <10 µM
CC(C)(C)NC(=O)[C@@H]1C[C@@H](O)CCN1C(=O)[C@@H](O)[C@H](Cc1ccccc1)NC(=O)[C@H](CC(N)=O)NC(=O)OCc1ccccc1 ; target: Protease ; dose: 5 µM ; measure: inhibition ; organism: HIV-1 ; result: 88.3%
CCN(CC)CCN1CCn2c(nc(C(=O)NCc3ccc(F)cc3)c(O)c2=O)C1(C)C ; target: Integrase ; measure: IC50 ; organism: HIV-1 ; method: ELISA ; result: <10 µM
COc1cccc(Cn2cccc2/C=C/C(=O)CC(=O)C(=O)O)c1 ; target: RNase H ; changes: Y501A ; measure: IC50 ; organism: HIV-1 ; method: substrate cleavage / fluorescence ; result: 6.4 µM
CCN1c2ncc(CCOc3ccc(CCC(=O)O)c4ccccc34)cc2C(=O)Nc2c(C)cc(F)nc21 ; target: Reverse transcriptase ; changes: RT-V106A ; measure: fold resistance ; organism: HIV-1 ; method: nucleotide incorporation / radiometric ; result: 1–10
CC(=O)N(C)c1cn2ccn(Cc3cccc(Cl)c3)c(=O)c2c(O)c1=O ; target: Integrase ; measure: IC50 ; organism: HIV-1 ; method: ELISA ; result: <0.01 µM
CC(C)=CCN1Cc2cccc3[nH]c(=S)n(c23)C[C@@H]1C ; target: Reverse transcriptase ; changes: RT-F61L ; measure: fold resistance ; organism: HIV ; method: nucleotide incorporation ; result: 0.783
CNC(=O)CN1CCn2c(nc(C(=O)NCc3ccc(F)cc3)c(O)c2=O)C1(C)C ; target: Integrase ; measure: IC50 ; organism: HIV-1 ; method: ELISA ; result: <10 µM
CCNC(=O)c1cn2ccn(Cc3ccc(F)cc3)c(=O)c2c(O)c1=O ; target: Integrase ; measure: IC50 ; organism: HIV-1 ; method: ELISA ; result: 0.01–0.1 µM
CS(=O)(=O)C[C@H](NC(=O)COc1cccc2ccccc12)C(=O)N[C@@H](Cc1ccccc1)[C@H](O)C(=O)N1CCC[C@H]1C(=O)Nc1ccccc1O ; target: Protease ; dose: 0.05 µM ; measure: inhibition ; organism: HIV-1 ; result: 3.3%
O=c1ccn2ccn(CCCc3c(Cl)cccc3Cl)c(=O)c2c1O ; target: Integrase ; measure: IC50 ; organism: HIV-1 ; method: ELISA ; result: <0.01 µM
Cc1ccc(Cn2cccc2/C=C/C(=O)CC(=O)C(=O)O)c(C)c1 ; target: RNase H ; changes: Q475A ; measure: IC50 ; organism: HIV-1 ; method: substrate cleavage / fluorescence ; result: 3.4 µM
CC(C)c1cc(=O)c(O)c2n1CCN(Cc1ccc(Cl)c(Cl)c1)C2=O ; target: Integrase ; measure: IC50 ; organism: HIV-1 ; method: ELISA ; result: 0.01–0.1 µM
CC(C)(C#Cc1ccc(NC(=O)CSc2nnnn2-c2cc(C(C)(C)C)cc(Br)c2Cl)c(Cl)c1)C(=O)O ; target: Reverse transcriptase ; strain or isolate: WT ; measure: IC50 ; organism: HIV-1 ; method: PicoGreen / fluorescence ; result: <1 µM
CC(=O)Nc1cn2ccn(Cc3cccc(Cl)c3F)c(=O)c2c(O)c1=O ; target: Integrase ; measure: IC50 ; organism: HIV-1 ; method: ELISA ; result: 0.01–0.1 µM
Nc1nc2c(ncn2[C@H]2CO[C@@H](COP(=O)(O)OP(=O)(O)OP(=O)(O)O)O2)c(=O)[nH]1 ; target: Reverse transcriptase ; changes: RT-K65R Q151M ; measure: Ki ; organism: HIV ; method: radiometric ; result: 0.766 µM
O=C(Cc1ccccn1)Nc1cn2ccn(Cc3cccc(Cl)c3)c(=O)c2c(O)c1=O ; target: Integrase ; measure: IC50 ; organism: HIV-1 ; method: ELISA ; result: 0.01–0.1 µM
CC(C)(C)NC(=O)[C@@H]1CCCN1C(=O)[C@@H](O)[C@H](Cc1ccccc1)NC(=O)[C@H](CS(C)(=O)=O)NC(=O)CNc1cccc2ccccc12 ; target: Protease ; dose: 0.05 µM ; measure: inhibition ; organism: HIV-1 ; result: 55.4%
CCOC(=O)C(=O)CC(=O)/C=C/c1cccn1Cc1ccc(C)cc1C ; target: RNase H ; changes: N474A ; measure: IC50 ; organism: HIV-1 ; method: substrate cleavage / fluorescence ; result: >100 µM
Cn1ncnc1-c1cn2c(c(O)c1=O)C(=O)N(Cc1ccc(F)c(Cl)c1)CC2 ; target: Integrase ; measure: IC50 ; organism: HIV-1 ; method: ELISA ; result: <0.01 µM